Measurements as given in ChEMBL document CHEMBL3120092, “Discovery of GS-9669, a thumb site II non-nucleoside inhibitor of NS5B for the treatment of genotype 1 chronic hepatitis C infection” (J Med Chem, 2014).

Experiments:
Hepatitis C virus [1] = assay: Antiviral activity against Hepatitis C virus H77 genotype 1a infected in human HuH7 cells assessed as observed antiviral potency after 72 hrs by luciferase reporter gene assay; conditions: huh-7; strain genotype 1a H77, Huh-7
Hepatitis C virus [2] = assay: Antiviral activity against Hepatitis C virus H77 genotype 1a infected in human HuH7 cells assessed as intrinsic antiviral potency after 72 hrs by luciferase reporter gene assay; conditions: huh-7; strain genotype 1a H77, Huh-7
[3] = Fraction unbound in cell culture medium at 2 uM at pH 7.4 by equilibrium dialysis method; conditions: pH 7.4, 2 µM
Hepatitis C virus [4] = assay: Antiviral activity against Hepatitis C virus Con1 genotype 1b infected in human HuH7 cells after 72 hrs by luciferase reporter gene assay; conditions: huh-7; strain isolate Con1, Huh-7
MT4 = assay: Cytotoxicity against human MT4 cells after 5 days by Cell Titre Glo assay; format: cell-based; conditions: mt4, 120 h
Huh-7 = assay: Cytotoxicity against human HuH7 cells after 3 days by Cell Titre Glo assay; format: cell-based; conditions: huh-7, 72 h

CN1CCC(N(c2cc(C#CC(C)(C)C)sc2C(=O)O)C(=O)[C@H]2CC[C@H](C)CC2)CC1
EC50 (Hepatitis C virus [1]): 15 nM
EC50 (Hepatitis C virus [2]): 11 nM
Fu [3]: 0.71
EC50 (Hepatitis C virus [4]): 2 nM
CC50 (MT4): > 20 µM
CC50 (Huh-7): ≥ 20 µM

Some compounds may have been tested in ways that are not shown here.
